Data published in publication PMC5541348.
The exact form of at least one protein or probe is not confirmed. At least one verdict rests on a figure or table, not on a statement of the authors. Where a protein sequence is shown, tags need not be part of it.

Test system: T1, His6-MabR (MabRMT/MabRTB)
T1 sequence (looked up, limits assumed): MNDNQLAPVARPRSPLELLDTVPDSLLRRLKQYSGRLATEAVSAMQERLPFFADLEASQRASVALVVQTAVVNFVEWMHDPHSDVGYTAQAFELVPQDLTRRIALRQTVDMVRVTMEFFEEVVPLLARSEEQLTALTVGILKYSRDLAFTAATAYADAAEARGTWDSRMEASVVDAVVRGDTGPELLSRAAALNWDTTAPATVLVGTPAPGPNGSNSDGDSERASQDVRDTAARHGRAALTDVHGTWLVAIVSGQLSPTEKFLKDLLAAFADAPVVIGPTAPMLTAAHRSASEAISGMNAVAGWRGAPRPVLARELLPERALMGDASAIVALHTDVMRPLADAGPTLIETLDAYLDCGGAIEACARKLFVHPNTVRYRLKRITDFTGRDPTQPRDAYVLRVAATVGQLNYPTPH
Assay: EMSA
Conditions: recombinant protein, protein details: His6, label: 32P 5' end label, probe letters rebuilt from the primers and the genome

CGAACCCTGTCCGGGTGCGAGCAACGCAATCACGTGTCTAAGAGAACACTGTGAAGACGGTTTTGCGCGGTGTAACAGATTATGAACCTCGTCTTAGGTTTTTGTATATAACCAACAAAACGGGCCTGTAAGCTATGTTTTTGAGATCGTCCCGCGACCTGTTGTCTGGATCACTTTCCGTCCGACGGCGCCCCTGGTATCTTTCCGGGGCCCCTGCTGGACCCCCTCTGACCGGCGAGGGAATCTATGACACGGCATTGCTGTCGATGCTT (double strand) [PfasIIMT 272 bp probe]
binds: binding result (C16-CoA 0.1-1 uM, no effect on binding) | binding result (C18-CoA 1 uM, binding increased) | binding result (C20-CoA 0.1-1 uM, binding enhanced) | binding result (C22-CoA 0.1-1 uM, binding enhanced) | binding result
